Data taken from the supplement of paper PMC9931576.
Human monoclonal antibodies against the spike receptor-binding domain (heavy:light variable regions). IC50 against pseudoviruses bearing the spike of naturally observed variants; lower = stronger; >10 µg/ml means not reached at the top dose. No active / inactive call. The stated detection limit is 0.0005 µg/ml; values near or below 0.001 µg/ml lie at the floor of the assay.

How the values were obtained:
Assay in all cases: pseudovirus neutralization IC50; higher = weaker neutralization
[1] = molecular target: SARS-CoV-2 Omicron BA.1 spike pseudovirus
Description: (§1)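 Single-round VSV luciferase pseudovirus mixed with antibody dilutions for 1 h and put on Huh-7 cells for about a day; IC50 from the dose curve.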

[2] = molecular target: SARS-CoV-2 Omicron BA.2 spike pseudovirus
Description: as §1

[3] = molecular target: SARS-CoV-2 Omicron BA.2.75 spike pseudovirus
Description: as §1

[4] = molecular target: SARS-CoV-2 Omicron BA.2.75.2 spike pseudovirus
Description: as §1

[5] = molecular target: SARS-CoV-2 Omicron BA.5 spike pseudovirus
Description: as §1

[6] = molecular target: SARS-CoV-2 Omicron BM.1.1.1 spike pseudovirus
Description: as §1

[7] = molecular target: SARS-CoV-2 Omicron BQ.1.1 spike pseudovirus
Description: as §1

[8] = molecular target: SARS-CoV-2 Omicron BR.2 spike pseudovirus
Description: as §1

[9] = molecular target: SARS-CoV-2 Omicron CA.1 spike pseudovirus
Description: as §1

[10] = molecular target: SARS-CoV-2 Omicron XBB spike pseudovirus
Description: as §1

[11] = molecular target: SARS-CoV-2 early D614G spike pseudovirus
Description: as §1

| Binder | pseudovirus neutralization IC50 [1] [µg/mL] | pseudovirus neutralization IC50 [2] [µg/mL] | pseudovirus neutralization IC50 [3] [µg/mL] | pseudovirus neutralization IC50 [4] [µg/mL] | pseudovirus neutralization IC50 [5] [µg/mL] | pseudovirus neutralization IC50 [6] [µg/mL] | pseudovirus neutralization IC50 [7] [µg/mL] | pseudovirus neutralization IC50 [8] [µg/mL] | pseudovirus neutralization IC50 [9] [µg/mL] | pseudovirus neutralization IC50 [10] [µg/mL] | pseudovirus neutralization IC50 [11] [µg/mL] |
| --- | --- | --- | --- | --- | --- | --- | --- | --- | --- | --- | --- |
| BD57-0382 (protein) chain 1: EVQLVQSGADVKKPGESLRISCKGSGYTFTNYWIAWVRLMPGKGLEWMGIIYPDDSNTKYSPSFQGQVTVSVDKSISTAYLQWSSLKASDTAMYYCARYYDILTGSYRGGHVFDYWGQGTLVTVSS chain 2: HSALTQPRTVSGSLGQSVTISCTGTSSNVGFNNHVSWYQLRPGKVPKVLIYEVYERPSGVPVRFSGSKSGNTASLTISALQAEDEADYYCCSYAGNYMWVFGGGTELTVV | > 10 | > 10 | > 10 | > 10 | > 10 | > 10 | > 10 | > 10 | > 10 | > 10 | > 10 |
| BD57-0192 (protein) chain 1: QVQLVESGGGVVQPGKSLRLSCAASGFTFSIYGMHWVRQAPGKGLEWVAIIWFDGGKTYYVDSVKGRFTISRDNSKNTLYLQMNSLRAEDTAVYYCARDSGGYYGVDYWGQGTLVTVSS chain 2: NFMLTQPHSVSESPGKTVTISCTRSSGSIASNYVQWYQQRPGSAPTTVIFEDNQRPSGVPDRFSGSIDSSSESASLTISGLRPEDGADYYCQSHAGTNWVFGGGTKLTVL | > 10 | > 10 | > 10 | > 10 | > 10 | > 10 | > 10 | > 10 | > 10 | > 10 | > 10 |
| BD57-0253 (protein) chain 1: QITLKESGPTLVKPTQTLTLTCTFSGFSLSTSGVGVGWIRQPPGKALEWLALIYWDDDKRYSPSLKSRLTITKDTSKNQVVLTMTNMDPVDTATYYCAHTWDKTSWTDNNWFDPWGQGTLVTVSS chain 2: EIVLTQSPATLSLSPGERATLSCRASQSVSSYLAWYQQKPGQAPRLLIYDASNRATGIPARFSGSGSGTDFTLTISSLEPEDFAVYYCQQRSHWPITFGPGTRLEIK | > 10 | > 10 | > 10 | > 10 | > 10 | > 10 | > 10 | > 10 | > 10 | > 10 | > 10 |
| BD57-0122 (protein) chain 1: EVQLVESGGGLVQPGGSLRLSCVGLGSGFTFSTYDMHWVRRATGKGLEWVSGVGSIGDIHYGDSVKGRFTISRENSKNSLDLQMNSLTAGDTAVYYCVTRGASVSFEHWGQGTLVTVSS chain 2: QPVLTQPPSASAFLGASVTLTCTLSNGYSNYIVDWYQQRPGKGPRFVMRVSTGGIMGSRGDDIPDRFSVLGSGLNRFLTINNVQEEDEGDYHCGADHGDGSTFVWVFGGGTKVTVL | > 10 | > 10 | > 10 | > 10 | 0.0539 | > 10 | > 10 | > 10 | > 10 | > 10 | > 10 |
| BD57-0158 (protein) chain 1: QITLKESGPTLVKPTQTLTLTCTFSGFSLSTSGVGVGWIRQPPGKALEWLALIYWDDDKRYSPSLKSRLTITKDTSKNQVVLTMTNMDPVDTATYYCAHSEGWEWLDSFWFDPWGQGTLVTVSS chain 2: EIVMTQSPATLSVSPGERATLSCRASQSVSSNLAWYQQKPGQAPRLLIYGASTRATDIPARFSGSGSGTEFTLTISSLQSEDFAVYYCQQYNNWWTFGQGTKVEIK | > 10 | > 10 | > 10 | > 10 | > 10 | > 10 | > 10 | > 10 | > 10 | > 10 | > 10 |
| BD57-0274 (protein) chain 1: QITLKESGPTLVKPTQTLTLTCTFSGFSLSTSGVGVGWIRQPPGKALEWLALIFWDDDKRYSPSLRSRLTIAKDTSKNQVVLTLTNIDPVDTATYYCAHRRDYYDSNDFYYAVDYWGQGTLVTVSA chain 2: EIVMTQSPATLSVSPGERATLSCRASQSIRSNLAWYQQKPGQAPRLLIYDASTRATGISARFSGRGSGTEFTLTISSLQSEDLVVYYCQQYNDWPFTFGPGTKVDIK | > 10 | 0.492 | > 10 | > 10 | 0.216 | > 10 | > 10 | > 10 | > 10 | > 10 | > 10 |
| BD57-0257 (protein) chain 1: QVQLVQSGAEVKRPGSSVKVSCTASGGSIGGTFTIFGINWVRQAPGQGLEWMGRIIPVPDITDTTQKFQGRVTFTADRSTSTAYMELSSLRSDDTAVYYCARDRGRFDYWGQGTLVTVSS chain 2: DIVLTQTPLSLSVTPGQPASISCRSSQSLLHSDGETYLSWYLQRPSQPPQLLIYEVSNRFSGVPERFSGSGSGTDFTLKISRVEAEDVGVYYCMQSVQLRTFGQGTNLEIK | > 10 | > 10 | > 10 | > 10 | > 10 | > 10 | > 10 | > 10 | > 10 | > 10 | > 10 |
| BD57-0116 (protein) chain 1: QVQLQESGPGLVKPSQTLSLTCTVSGGSISSADHYWSWIRQPPGKGLEWIGYIYYSGSTYYNPSLKSRVTILVDTSKNQFSLKLSSVTAADTAVYYCAQTGIEVTIIDYWGQGTLVTVSS chain 2: QSALTQPASVSGSPGQSITISCTGTSSDVGGYNYVSWYRQHPGKAPKLMIYDVSNRPSGVSNRFSGSKSGNTASLTISGLQAEDEADYYCSSFTSSSTVLVFGGGTKLTVL | > 10 | 0.0191 | 0.018 | 0.0393 | 0.01 | 0.0201 | 0.0254 | 0.0217 | 0.0296 | 0.0254 | > 10 |
| BD56-302 (protein) chain 1: EVQLVESGGGLVQPGRSLRLSCAASGFTFDDYAMHWVRQAPGKGLEWVSGISWNGDNIAYADSVKGRFTISRDNAKNSLYLQMNSLRPEDTAFYYCAKDILPGSSWYYGMDVWGQGTTVTVSS chain 2: QSVLTQPPSASGTPGQRVTISCSGSSSHIGSNTVNWYQQLPGTAPKLLLYSNNQRPSGVPDRFSGSKSGTSASLAISGLQSEDEADYYCAAWDDSLNGYVFGTGTKVTVL | 0.0189 | 0.0213 | > 10 | > 10 | 0.392 | > 10 | > 10 | > 10 | > 10 | > 10 | > 10 |
| BD57-0276 (protein) chain 1: QVLLQESGPGLVRPSETLSLTCTVSGGSITNYYWNWIRQAPGQPPEWIGNVYHTGGTDYNPSLKSRVTITLDTSETQFSLRLSSVTAADTAVYYCARLGELTGDGYFDFWGHGALVTVSS chain 2: DIQMTQSPSSLSASVGDRVSITCRASRYIGLYLNWYQQKPGKAPKLLISAASTLSSGVPSRFSGSGSGTDFTLTISSLQPEDFATYYCQQSYSTTPYTFGQGTNLEIK | > 10 | > 10 | > 10 | > 10 | > 10 | > 10 | > 10 | > 10 | > 10 | > 10 | > 10 |
